Sequence variants of PSTVd stem 3 after infection

Reference: Wu et al. 2024, doi:10.1371/journal.ppat.1012142.

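Three N. benthamiana plants were inoculated with the whole mutant pool. Samples came from the inoculated region at 5 days, the leaf margin at 10 and upper systemic leaves at 12.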

PSTVd intermediate strain, stem 3: wild type GUGGUUCCGGAACCGC, pool pattern GUGGUUCCGNANNCNN; upper and lower strand joined, each 5' to 3', the first 8 letters being the upper strand.

Values are reads per thousand in the sample; higher means more abundant, 0 means not found. Each value is the mean of three plants. "Pool" is the share in the plasmid pool used as inoculum, on the same scale. The inoculated region was read from the minus strand, the other sites from the plus strand. IR is the inoculated region, LM the leaf margin, Sys the systemic leaves.

| # | sequence | pool | IR | LM | Sys |
|---|---|---|---|---|---|
| 1 | GUGGUUCCGCAACCAU | 0.908 | 0.829 | 0.00944 | 0 |
| 2 | GUGGUUCCGUAAGCAC | 0.754 | 0.348 | 0.0106 | 0 |
| 3 | GUGGUUCCGAAACCGA | 0.754 | 0.367 | 0.0215 | 0 |
| 4 | GUGGUUCCGUAUACGC | 1.06 | 0.581 | 0.0745 | 0.0702 |
| 5 | GUGGUUCCGAAUCCUG | 0.800 | 0.288 | 0.0226 | 0 |
| 6 | GUGGUUCCGGACCCUA | 0.877 | 0.393 | 0.0215 | 0 |
| 7 | GUGGUUCCGCAUCCGG | 0.708 | 0.333 | 0.0241 | 0.0516 |
| 8 | GUGGGUCCGCAGCCGU | 0.0154 | 0 | 0 | 0 |
| 9 | GUGGUUCCGAACACCA | 1.37 | 0.437 | 0 | 0.0124 |
| 10 | GUGGUUCCGGACGCCA | 0.708 | 0.389 | 0.0120 | 0 |
| 11 | GUGGGUCCGUAUCCUG | 0.0154 | 0 | 0 | 0 |
| 12 | GUGGGUCCGCAUCCAU | 0.0154 | 0 | 0 | 0 |
| 13 | GUGGUUCCGAAGGAUU | 0.0154 | 0.448 | 0 | 0 |
| 14 | GUGGUUCCGAAACCUG | 0.708 | 0.347 | 0.0215 | 0 |
| 15 | GUGUUUCCGGAACCGA | 0.0154 | 0.0161 | 0.00944 | 0.0309 |
| 16 | GUGGUUCCGAAUACAU | 0.862 | 0.633 | 0.512 | 0 |
| 17 | GUGGUUCCGCAGUCCG | 0.662 | 1.28 | 0.339 | 0 |
| 18 | GUGGUUCCGUACGCAA | 0.769 | 0.281 | 0.0120 | 0 |
| 19 | GUGGUUCCGUAUACAA | 1.02 | 0.323 | 0.0106 | 0 |
| 20 | GUGGUUCCGCACUCUA | 0.631 | 0.272 | 0.0106 | 0 |
| 21 | GUGGUUCCGGAAGCUU | 0.769 | 0.340 | 0.0120 | 0 |
| 22 | GUGGUUCCGGAGCCUG | 0.831 | 0.276 | 0.0106 | 0 |
| 23 | GUGGCUCCGAACGCAA | 0.0154 | 0 | 0 | 0 |
| 24 | GUGGUUCCGAACGCUU | 0.893 | 0.831 | 0 | 0 |
| 25 | GUGGUUCCGUAAGCGG | 0.831 | 0.345 | 0.0335 | 0.0683 |
| 26 | GUGGUUCCGUAUCCGG | 0.831 | 0.283 | 0.0120 | 0 |
| 27 | GUGGUUCCGAAUUCAA | 0.831 | 0.918 | 0.655 | 0 |
| 28 | GUGGUUCCGGACGCAA | 0.769 | 0.310 | 0.0507 | 0 |
| 29 | GUGGUUCCGUACCCGA | 0.908 | 0.290 | 0.0106 | 0 |
| 30 | GUGGUUCCGAACACGG | 0.846 | 0.394 | 0.0241 | 0 |
| 31 | GUGGUUCCGUAGACUC | 0.785 | 0.327 | 0.0120 | 0 |
| 32 | GUGGUUCCGAAGCCGC | 0.846 | 0.776 | 0.0226 | 0 |
| 33 | GUGGUUCCGUAGCCAA | 0.846 | 0.708 | 0.0335 | 0 |
| 34 | GUGGUUCCGUAGCCUU | 1.06 | 0.695 | 0.0106 | 0 |
| 35 | GUGGUUCCGCAGCCUC | 0.877 | 0.303 | 0.0106 | 0 |
| 36 | GUGGUUCCGAAAACAG | 0.677 | 0.742 | 0.119 | 0 |
| 37 | GUGGUUCCGAACACGU | 0.877 | 0.855 | 0.0456 | 0 |
| 38 | GUGGGUCCGUACGCCC | 0.0154 | 0 | 0 | 0 |
| 39 | GUGGCUCCGUAUGCGA | 0.0154 | 0 | 0 | 0 |
| 40 | GUGGUUCCGAAAUCAA | 0.831 | 0.760 | 0.0120 | 0 |
| 41 | GGGGUUCCGCAGACGC | 0.0154 | 0 | 0 | 0 |
| 42 | GUGGGUCCGGAUACUG | 0.0154 | 0 | 0 | 0 |
| 43 | GUGGUUCCGUAGUCGA | 1.39 | 1.13 | 0.0226 | 0.00811 |

The first 6 entries again:

{"sequence": "GUGGUUCCGCAACCAU", "pool": "0.908", "IR": 0.829, "LM": 0.00944, "Sys": 0}
{"sequence": "GUGGUUCCGUAAGCAC", "pool": "0.754", "IR": 0.348, "LM": 0.0106, "Sys": 0}
{"sequence": "GUGGUUCCGAAACCGA", "pool": "0.754", "IR": 0.367, "LM": 0.0215, "Sys": 0}
{"sequence": "GUGGUUCCGUAUACGC", "pool": "1.06", "IR": 0.581, "LM": 0.0745, "Sys": 0.0702}
{"sequence": "GUGGUUCCGAAUCCUG", "pool": "0.800", "IR": 0.288, "LM": 0.0226, "Sys": 0}
{"sequence": "GUGGUUCCGGACCCUA", "pool": "0.877", "IR": 0.393, "LM": 0.0215, "Sys": 0}

With 27,691-54,225 reads a sample, very low values are single reads. For reference, wild type rose from 17.3 per thousand in the pool to 330, 345, 235 (inoculated region), 794, 766, 816 (leaf margin) and 830, 792, 869 (systemic leaves). The authors trace changes outside the varied positions to PCR and sequencing errors or to mutation in the plant; presence does not show that a variant is infectious alone.